Screening data, single-dose tests

Mtb cholesterol medium: 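Growth of Mycobacterium tuberculosis over 4 days (cholesterol / DPPC medium with tyloxapol); the read-out is not stated. Tested at 500 µM. Higher reads as more growth inhibition (inferred: compounds with an IC50 in retests scored well above the rest). About 18,000 compounds were tested under these conditions; 5% (about 900) showed 50% or more at least once.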
Mtb glucose medium: 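Whole-cell growth test on Mycobacterium tuberculosis, read after 3 days in glucose-containing 7H9 medium; the read-out is not stated. Compounds at 500 µM. Higher reads as more growth inhibition (inferred: compounds with an IC50 in retests scored well above the rest). Of about 18,000 compounds tested this way, about 1,400 (7.9%) reached 50% or more in at least one test.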

Values are the deposited “Percent Effect”, in %.
The controls that fix the scale are not given in the record; negative values are as filed.
This is part of a subset picked to be rich in strong results.
A dash means the value is not listed here; it may have been measured.

{"compound": "CC(C)Oc1ccc(CNC(=O)C2CCC(=O)N2)cc1", "stereo": "stereo not given", "Mtb cholesterol medium": 6.668}
{"compound": "CCCc1cc(C(=O)NC(CC)c2nc(C)c[nH]2)[nH]n1", "stereo": "stereo not given", "Mtb glucose medium": -5.506}
{"compound": "O=C(c1ccccn1)N1CCC2(CCCCO2)CC1", "Mtb cholesterol medium": 9.517, "Mtb glucose medium": 35.6}
{"compound": "O=C(Cc1cc(F)ccc1F)NCC1CCNC1", "stereo": "stereo not given", "Mtb glucose medium": 3.44}
{"compound": "Cc1cnc(CNC(=O)Cn2nc(C)c(C)c2C)cn1", "Mtb glucose medium": 21.32}
{"compound": "Cc1cnccc1NCCn1ccnc1-c1ncc[nH]1", "Mtb cholesterol medium": 4.565}
{"compound": "Cc1nc2n(c1C)CCN(Cc1ncc(Cl)n1C)C2", "Mtb cholesterol medium": -14.33}
{"compound": "O=C1NCC(C(=O)NCCc2ccc(Cl)s2)N1", "stereo": "stereo not given", "Mtb glucose medium": 6.619}
{"compound": "NC1CCN(c2cccc(Cl)c2)C1", "stereo": "stereo not given", "Mtb cholesterol medium": -7.494, "Mtb glucose medium": -9.639}
{"compound": "COCCNCC(=O)OC", "Mtb glucose medium": -5.137}
{"compound": "CCCOc1ccc(CN)cc1", "Mtb glucose medium": 23.15}
{"compound": "CN(C)CCCNC(=O)c1cccc2cccnc12", "Mtb cholesterol medium": 7.988}
{"compound": "CNS(=O)(=O)CCCNC(C)c1ccc(C)o1", "stereo": "stereo not given", "Mtb cholesterol medium": 5.324}
{"compound": "NC(=O)CCS(=O)(=O)CCN1CCc2ccccc2C1", "Mtb cholesterol medium": 17.22, "Mtb glucose medium": 24.79}
{"compound": "Cc1ncc(C(=O)NCCN2CCCC2)s1", "Mtb glucose medium": -4.466}
{"compound": "c1cncc(-c2ccnn2CN2CCSCC2)c1", "Mtb cholesterol medium": 6.713}
{"compound": "CN(Cc1ccco1)C(=O)CN1CCc2sccc2C1", "Mtb cholesterol medium": 69.22, "Mtb glucose medium": 62.98}
{"compound": "CCCN1CCC(NC(=O)CN2CSCC2=O)CC1", "Mtb glucose medium": -5.308}
{"compound": "CCn1cc(C(=O)NC(C)c2nc(C3CC3)no2)cn1", "stereo": "stereo not given", "Mtb cholesterol medium": 17.74, "Mtb glucose medium": 29.85}
{"compound": "O=C(c1ccncc1F)N1CCC(c2cc[nH]n2)CC1", "Mtb glucose medium": -1.97}
{"compound": "CC(=O)N1CCN(Cc2cncs2)C(C)(C)C1", "Mtb cholesterol medium": -0.8803}
{"compound": "NCc1ccc(N2CCCS2(=O)=O)c(F)c1", "Mtb glucose medium": 1.737}
{"compound": "c1ccc(-c2n[nH]c(C3CCNCC3)n2)cc1", "Mtb glucose medium": 17.6}
{"compound": "CC(CN)S(C)(=O)=O", "stereo": "stereo not given", "Mtb cholesterol medium": -0.4253}
{"compound": "C1CC(C2COCCN2)C1", "stereo": "stereo not given", "Mtb cholesterol medium": -25.55}
{"compound": "CC(=O)Nc1cccc(-n2nnnc2SCC#N)c1", "Mtb glucose medium": 4.076}
{"compound": "CCOC(=O)CSc1n[nH]c(-c2cccnc2)n1", "Mtb cholesterol medium": 17.02, "Mtb glucose medium": 15.63}
{"compound": "Cn1c(=O)c2c(ncn2CCC#N)n(C)c1=O", "Mtb cholesterol medium": -2.535}
{"compound": "COC[C@H](O)CNC(C)c1ccc(Cl)s1", "stereo": "stereo not given in full", "Mtb cholesterol medium": -7.179, "Mtb glucose medium": 4.635}
{"compound": "C[C@@H](N)C(=O)N1CCCC1Cc1cccc(F)c1", "stereo": "stereo not given in full", "Mtb cholesterol medium": 17.12}
{"compound": "O=C(CCc1nc(-c2ccncc2)no1)NC1CC1", "Mtb cholesterol medium": -16.94}
{"compound": "CCN1CCN(C(=O)c2cccc(C)c2O)CC1", "Mtb glucose medium": 14.19}
{"compound": "CNC(=O)c1csc(Br)c1", "Mtb glucose medium": 20.78}
{"compound": "O=S(=O)(NC1CNC1)c1ccco1", "Mtb glucose medium": 13.71}
{"compound": "O=C(CCN1CCC(O)C1)N1CCOCC1", "stereo": "stereo not given", "Mtb cholesterol medium": -11.6}
{"compound": "Cc1ccc(F)cc1CNCC1(O)CCOC1", "stereo": "stereo not given", "Mtb cholesterol medium": 22.3}
{"compound": "CCC(CC)(CNC(=O)Cc1cc(C)on1)S(C)(=O)=O", "Mtb glucose medium": -8.299}
{"compound": "COCCn1cc(CNC(=O)CC2CC2)cn1", "Mtb cholesterol medium": 4.073}

2 of the entries, repeated:

compound,Mtb cholesterol medium,Mtb glucose medium
O=C(CCN1CCC(O)C1)N1CCOCC1 (stereo not given),-11.6%,-
CC(=O)Nc1cccc(-n2nnnc2SCC#N)c1,-,4.076%

From ChEMBL document CHEMBL3988442, “University of Dundee, Small-Polar-MMV Screening Library” (2021).